{"source": "the supplement of paper PMC4206467", "note": "This is a selection; strong and weak results do not stand in their true shares.", "data": [{"system": "Perkinsus marinus PRA240", "test": "ATP content (proliferation) relative to DMSO control; higher = more parasite growth (less inhibition)", "settings": "20 µM; 4 days", "protocol": "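Perkinsus marinus PRA240 trophozoites (2-5x10^6 cells/ml, 100 µl, 96-well) were exposed once to MMV Malaria Box compounds at 20 µM (0.1% DMSO) in triplicate. ATP content (ATPlite bioluminescence) was read at day 4 post-exposure and normalised to DMSO + cells control wells (100% activity). Compounds were identified by joining plate and well to the Malaria Box list.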", "units": {"ATP content": "%"}, "values": [{"smiles": "c1ccc2c(NCCCCCCNc3c4c(nc5ccccc35)CCCC4)c3c(nc2c1)CCCC3", "ATP content": 162}]}]}
